A mixed list of measured activities; the numbers were collected in NIAID ChemDB.

All rows: tests in culture; organism: Staphylococcus aureus

a–b is a range or a potency band.

compound | strain | measure | value
O=C1O[C@@H](COc2ccon2)CN1c1ccc(-n2ccnn2)c(F)c1 | 004 (methicillin quinolone-resistant) | MIC | 4 µg/mL
Cc1c(N)c(F)cc2c(=O)c(C(=O)O)cn(-c3cc(N)c(F)cc3F)c12 | 27 isolates (methicillin-resistant) | MIC50 | 0.015 µg/mL
CCCCCCCCCCSC[N+](C)(C)CCCCCCCC | ATCC 6538 | MBC | 26.3 µM
O=C(O)c1cn(C2CC2)c2cc(NCCCCCCO)c(F)cc2c1=O | ATCC 5278 (methicillin-resistant) | MIC | >100 µg/mL
CCCCCCCCOC[N+](C)(C)CCCCCCCC | ATCC 6538 | MBC | 14.9 µM
O=C1O[C@@H](CNc2ccon2)CN1c1ccc(-n2ccnc2)c(F)c1 | 078 (oxford) | MIC | 0.13 µg/mL
CCCCCCCCCCCC[N+](C)(C)COCCCC | ATCC 6538 | MBC | 4.46 µM
O=C(O)c1cn(C2CC2)c2cc(NCCCCCO)c(F)cc2c1=O | ATCC 6538P | MIC | 12.5 µg/mL
COC(=O)N1CCN(c2ccc(N3C[C@H](COc4ccon4)OC3=O)cc2F)CC1 | 004 (methicillin quinolone-resistant) | MIC | 2 µg/mL
CCCCCCCCCCCC[N+](C)(C)CSCCCCCCCC | ATCC 6538 | MBC | 12.1 µM
NCCCCCCCCCCCCNc1cc2c(cc1F)c(=O)c(C(=O)O)cn2C1CC1 | ATCC 6538P | MIC | >100 µg/mL
N#Cc1ccc(N2CCN(c3ccc(N4C[C@H](COc5cnccn5)OC4=O)cc3F)CC2)nn1 | 122 (novobiocin-resistant) | MIC | 2 µg/mL
CCCCCCCCCCCC[N+](C)(C)COC(CCC)CCC | ATCC 6538 | MBC | 3.17 µM
CC(C)(N)CNc1cc2c(cc1F)c(=O)c(C(=O)O)cn2C1CC1 | ATCC 6538P | MIC | 12.5 µg/mL
CC1COc2c(N3CCN(C)CC3)c(F)cc3c(=O)c(C(=O)O)cn1c23 | Methicillin-susceptible | MIC90 | 0.25–2 µg/mL
COc1ccccc1CNc1cc2c(cc1F)c(=O)c(C(=O)O)cn2C1CC1 | ATCC 5278 (methicillin-resistant) | MIC | 3.12 µg/mL
O=C1O[C@@H](CNc2ccon2)CN1c1ccc(N2CCOCC2)c(F)c1 | 122 (novobiocin-resistant) | MIC | 1 µg/mL
CCN1CCN(C)c2cc3c(=O)c(C(=O)O)cn(C4CC4)c3cc21 | ATCC 6538P | MIC | >100 µg/mL
Cc1c(NCCO)c(F)cc2c(=O)c(C(=O)O)cn(-c3cc(N)c(F)cc3F)c12 | 27 isolates (methicillin-resistant) | MIC90 | 0.03 µg/mL
CCCCOCCCNc1cc2c(cc1F)c(=O)c(C(=O)O)cn2C1CC1 | ATCC 6538P | MIC | >100 µg/mL
CCCCCCCC[N+](C)(C)COCCC(C)CCCC(C)C | ATCC 6538 | MBC | 13.7 µM
CN(C)CCNc1cc2c(cc1F)c(=O)c(C(=O)O)cn2C1CC1 | ATCC 6538P | MIC | >100 µg/mL
CNC(=O)N[C@H]1CCN(c2ccc(N3C[C@H](CNc4ccon4)OC3=O)cc2F)C1 | 078 (oxford) | MIC | 0.25 µg/mL
CNc1c(F)cc2c(=O)c(C(=O)O)cn(-c3cc(N)c(F)cc3F)c2c1C | 27 isolates | MIC90 | 0.015 µg/mL

For reference, 3 entries again:

{"compound": "O=C(O)c1cn(C2CC2)c2cc(NCCCCCO)c(F)cc2c1=O", "strain": "ATCC 6538P", "measure": "MIC", "value": "12.5 µg/mL"}
{"compound": "CCCCCCCCOC[N+](C)(C)CCCCCCCC", "strain": "ATCC 6538", "measure": "MBC", "value": "14.9 µM"}
{"compound": "O=C1O[C@@H](CNc2ccon2)CN1c1ccc(N2CCOCC2)c(F)c1", "strain": "122 (novobiocin-resistant)", "measure": "MIC", "value": "1 µg/mL"}

Conditions beyond the fields shown may differ between rows. MIC50, MIC90 and the like: level of inhibition, or share of isolates inhibited.